Reference: paper PMC7382501

Protein sequences, listed by entry. Tags and fused reporters are not part of them. Lines headed by an entry give the natural chain unless they say otherwise; changes in a name come on top.
UniProt O05858: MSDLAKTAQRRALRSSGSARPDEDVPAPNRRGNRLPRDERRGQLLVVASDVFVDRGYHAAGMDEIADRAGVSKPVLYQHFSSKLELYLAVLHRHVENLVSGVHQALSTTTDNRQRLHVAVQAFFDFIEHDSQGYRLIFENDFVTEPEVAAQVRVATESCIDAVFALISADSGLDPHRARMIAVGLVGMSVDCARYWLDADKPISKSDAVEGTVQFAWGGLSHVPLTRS

Target: FasR wild-type (FasRwt) (Mycobacterium tuberculosis H37Rv) (UniProt O05858)
Experiment: EMSA
Details: no acyl-CoA, apparent KD; recombinant protein; residues 1-228; protein details: N-terminal His6 (pET28a, uncleaved); label: 5'-32P on N2_Fas1Mt-prom strand; probe letters rebuilt from the primers and the genome

CATAACGATTTGATAACAAAACTGCCTTGATCAGCGCAGTTATAGCTACTCCACCGTAACCACCTGCACGCAGGACGTTTGGTCAACACATACGCGCCGGCCGTCGAACCCGGCGTTACCCACGACACGGTTACCCGTACGTAGAACTCGCCAGTAACCGATCTGTGTAAACAAGGTGGACCGATCCTTATGAGACTCTTATAAGGCCGATGCAGCCCGTCGCGCTGCTCGACCCACGGGCCGGCCCACCGACAACACACCGGTCAGAGGATTTCGGCTGGGAGTCGGTGCGGAGTCGGGGATGCCCCGCACGGCAGCCTGGGCCGCTGTACGAACTGACACGTACCGATGCACATAGGGAGACATAGACCGTGACGATCCACGAGCACGACCGGGTG (double strand) [PfasMT promoter fragment (398 bp)]
Kd: 83 nM
